Source: a compilation of properties of binary mixtures (doi:10.1016/j.molliq.2019.111959)

Assay: xn = mol fraction of the nth substance listed
Conditions: 100 kPa

Compound `CC[n+]1ccn(C)c1.O=S(=O)(F)[N-]S(=O)(=O)F` + CC[n+]1ccn(C)c1.F[B-](F)(F)F has a mass density (293.15 K, x1 = 0.1) of 1298.4 kg/m3, a mass density (293.15 K, x1 = 0.3) of 1338.7 kg/m3 and a mass density (293.15 K, x1 = 0.4) of 1356 kg/m3. The mass density (293.15 K, x1 = 0.6) was 1400.5 kg/m3, the mass density (293.15 K, x1 = 1) was 1446.6 kg/m3 and the mass density (298.15 K, x1 = 0.3) was 1334.6 kg/m3. The mass density (298.15 K, x1 = 0.4) was 1351.9 kg/m3, the mass density (298.15 K, x1 = 0.6) was 1396.2 kg/m3 and the mass density (298.15 K, x1 = 1) was 1442.1 kg/m3. The mass density (303.15 K, x1 = 0.1) was 1290.5 kg/m3, the mass density (303.15 K, x1 = 0.2) was 1311.8 kg/m3 and the mass density (303.15 K, x1 = 0.4) was 1347.8 kg/m3. For the same compound, the mass density (303.15 K, x1 = 0.5) was 1364.6 kg/m3, the mass density (303.15 K, x1 = 0.6) was 1391.9 kg/m3 and the mass density (303.15 K, x1 = 1) was 1437.6 kg/m3. For the same compound, the mass density (308.15 K, x1 = 0.1) was 1286.5 kg/m3, the mass density (308.15 K, x1 = 0.2) was 1307.8 kg/m3 and the mass density (308.15 K, x1 = 0.3) was 1326.6 kg/m3. It also gave a mass density (308.15 K, x1 = 0.4) of 1343.8 kg/m3, a mass density (308.15 K, x1 = 0.5) of 1360.4 kg/m3 and a mass density (308.15 K, x1 = 1) of 1433.1 kg/m3. It also gave a mass density (313.15 K, x1 = 0.1) of 1282.6 kg/m3, a mass density (313.15 K, x1 = 0.2) of 1303.8 kg/m3 and a mass density (313.15 K, x1 = 0.3) of 1322.6 kg/m3. It also gave a mass density (313.15 K, x1 = 0.6) of 1383.3 kg/m3, a mass density (313.15 K, x1 = 1) of 1428.5 kg/m3 and a mass density (318.15 K, x1 = 0.1) of 1278.6 kg/m3. It also gave a mass density (318.15 K, x1 = 0.2) of 1299.8 kg/m3, a mass density (318.15 K, x1 = 0.3) of 1318.6 kg/m3 and a mass density (318.15 K, x1 = 0.4) of 1335.6 kg/m3. For the same compound, the mass density (318.15 K, x1 = 0.5) was 1352 kg/m3, the mass density (318.15 K, x1 = 1) was 1424 kg/m3 and the mass density (323.15 K, x1 = 0.1) was 1274.7 kg/m3. It also gave a mass density (323.15 K, x1 = 0.2) of 1295.9 kg/m3, a mass density (323.15 K, x1 = 0.4) of 1331.6 kg/m3 and a mass density (323.15 K, x1 = 0.5) of 1347.9 kg/m3. It also gave a mass density (323.15 K, x1 = 0.6) of 1374.7 kg/m3, a mass density (328.15 K, x1 = 0.1) of 1270.7 kg/m3 and a mass density (328.15 K, x1 = 0.4) of 1327.5 kg/m3. The mass density (328.15 K, x1 = 0.5) was 1343.7 kg/m3, the mass density (333.15 K, x1 = 0.1) was 1266.8 kg/m3 and the mass density (333.15 K, x1 = 0.3) was 1306.5 kg/m3. For the same compound, the mass density (333.15 K, x1 = 0.4) was 1323.4 kg/m3, the mass density (333.15 K, x1 = 0.5) was 1339.5 kg/m3 and the mass density (333.15 K, x1 = 0.6) was 1366.1 kg/m3. The mass density (333.15 K, x1 = 1) was 1410.5 kg/m3.
`CC[n+]1ccn(C)c1.F[B-](F)(F)F` + CC[n+]1ccn(C)c1.O=S(=O)(F)[N-]S(=O)(=O)F gave a mass density (293.15 K, x2 = 0) of 1284.4 kg/m3, a mass density (298.15 K, x2 = 0) of 1280.6 kg/m3 and a mass density (303.15 K, x2 = 0) of 1276.9 kg/m3. The mass density (308.15 K, x2 = 0) was 1273.1 kg/m3, the mass density (313.15 K, x2 = 0) was 1269.3 kg/m3 and the mass density (318.15 K, x2 = 0) was 1265.6 kg/m3. The mass density (323.15 K, x2 = 0) was 1261.8 kg/m3 and the mass density (328.15 K, x2 = 0) was 1258 kg/m3.
`CC[n+]1ccn(C)c1.O=S(=O)([N-]S(=O)(=O)C(F)(F)F)C(F)(F)F` + CC[n+]1ccn(C)c1.O=S(=O)(F)[N-]S(=O)(=O)F showed a mass density (293.15 K, x1 = 1) of 1523.7 kg/m3, a mass density (303.15 K, x1 = 1) of 1513.6 kg/m3 and a mass density (308.15 K, x1 = 1) of 1508.6 kg/m3. For the same compound, the mass density (313.15 K, x1 = 1) was 1503.5 kg/m3, the mass density (318.15 K, x1 = 1) was 1498.5 kg/m3 and the mass density (323.15 K, x1 = 1) was 1493.4 kg/m3. For the same compound, the mass density (333.15 K, x1 = 1) was 1483.3 kg/m3.
In the case of `CC[n+]1ccn(C)c1.O=S(=O)(F)[N-]S(=O)(=O)F` + CC[n+]1ccn(C)c1.O=S(=O)([N-]S(=O)(=O)C(F)(F)F)C(F)(F)F, the mass density (293.15 K, x2 = 0.5) is reported as 1489.8 kg/m3, the mass density (293.15 K, x2 = 0.6) is reported as 1496.5 kg/m3 and the mass density (293.15 K, x2 = 0.7) is reported as 1504.1 kg/m3. For the same compound, the mass density (293.15 K, x2 = 0.8) was 1507.4 kg/m3, the mass density (298.15 K, x2 = 0.5) was 1485 kg/m3 and the mass density (298.15 K, x2 = 0.7) was 1499.3 kg/m3. The mass density (303.15 K, x2 = 0.5) was 1480.2 kg/m3, the mass density (303.15 K, x2 = 0.6) was 1486.8 kg/m3 and the mass density (303.15 K, x2 = 0.7) was 1494.4 kg/m3. For the same compound, the mass density (303.15 K, x2 = 0.8) was 1497.5 kg/m3, the mass density (308.15 K, x2 = 0.5) was 1475.5 kg/m3 and the mass density (308.15 K, x2 = 0.6) was 1482 kg/m3. The mass density (308.15 K, x2 = 0.7) was 1489.5 kg/m3, the mass density (308.15 K, x2 = 0.8) was 1492.6 kg/m3 and the mass density (313.15 K, x2 = 0.5) was 1470.7 kg/m3. It also gave a mass density (313.15 K, x2 = 0.6) of 1477.2 kg/m3, a mass density (318.15 K, x2 = 0.5) of 1465.9 kg/m3 and a mass density (318.15 K, x2 = 0.6) of 1472.3 kg/m3. It also gave a mass density (318.15 K, x2 = 0.8) of 1482.8 kg/m3, a mass density (323.15 K, x2 = 0) of 1419.5 kg/m3 and a mass density (323.15 K, x2 = 0.5) of 1461.2 kg/m3. It also gave a mass density (323.15 K, x2 = 0.7) of 1475 kg/m3, a mass density (323.15 K, x2 = 0.8) of 1477.8 kg/m3 and a mass density (328.15 K, x2 = 0) of 1415 kg/m3. For the same compound, the mass density (328.15 K, x2 = 0.6) was 1462.7 kg/m3, the mass density (328.15 K, x2 = 0.7) was 1470.1 kg/m3 and the mass density (328.15 K, x2 = 0.8) was 1472.9 kg/m3. For the same compound, the mass density (333.15 K, x2 = 0.6) was 1457.8 kg/m3, the mass density (333.15 K, x2 = 0.7) was 1465.2 kg/m3 and the mass density (333.15 K, x2 = 0.8) was 1468 kg/m3.
